A mixed list of measured activities; the numbers were collected in NIAID ChemDB.

Shared fields: whole-cell or culture tests; agent: Candida tropicalis

MIC50, MIC90 and the like: level of inhibition, or share of isolates inhibited. Lines come from different laboratories, so protocols vary. Blank or dashed fields: not listed here. ECn is the concentration giving n% inhibition of infection, replication or growth.

SMILES	conditions	strain or isolate	read-out	cell line	read by	result
CCC(C)CC(C)CCCCCCCCC(=O)N[C@H]1C[C@@H](O)[C@H](NCCN)NC(=O)[C@@H]2[C@@H](O)CCN2C(=O)[C@H]([C@H](O)CCN)NC(=O)[C@H]([C@H](O)[C@@H](O)c2ccc(O)cc2)NC(=O)[C@@H]2C[C@@H](O)CN2C(=O)[C@H]([C@@H](C)O)NC1=O		8684	MIC		broth dilution	4 µg/mL
O/N=C\c1ccccc1			MIC			4130 µM
Fc1ccc(C(Cn2ccnc2)NCc2ccc(-c3ccccc3)cc2)cc1		CBS 94 CA 44 CA 28	MIC			2.4 µg/mL
CC1CC2=C(O1)c1ccccc1C(=O)C2=O		Clinical isolate	MIC		broth dilution	25.4 µg/mL
COc1ccc(/C=N/NC(=O)c2ccc(CNc3nc4ccccc4[nH]3)cc2)cc1			MIC		broth dilution	50 µg/mL
C[C@@H](c1ncncc1F)[C@](O)(Cn1cncn1)c1ccc(F)cc1F		559-6.9	MIC80			0.03 µg/mL
CCC(C)n1ncn(-c2ccc(N3CCN(c4ccc(OC[C@H]5CO[C@](Cn6cncn6)(c6ccc(Cl)cc6Cl)O5)cc4)CC3)cc2)c1=O			MIC90		broth dilution	>4 µg/mL
OC(CCn1ccnc1)c1cccc(C(O)c2ccc(Br)cc2)c1		RTCC 1095	MIC		broth dilution	>64 µg/mL
Nc1[nH]c(=O)ncc1F		10 isolates	MIC50			0.08 µg/mL
C[C@@H](c1ncncc1F)[C@](O)(Cn1cncn1)c1ccc(F)cc1F		8664	MIC		broth dilution	0.03 µg/mL
O=C(/C=C/c1cccc(F)c1)OC1CCN(CC(O)(Cn2cncn2)c2ccc(F)cc2F)CC1			MIC80		broth dilution	0.129 µM
Nc1[nH]c(=O)ncc1F		11 isolates	MIC90			0.5 µg/mL
C[C@@H](c1ncncc1F)[C@](O)(Cn1cncn1)c1ccc(F)cc1F			MIC90		broth dilution	>4 µg/mL
O=[N+]([O-])c1ccc(/C=N\O)cc1			MIC			3010 µM
CCCCCCCCCCCCCCCC(=O)NC(CCCCN)C(=O)NC(CCCCN)C(N)=O		750	MIC		broth dilution	0.5 µg/mL
O=C(/C=C/c1ccccc1[N+](=O)[O-])OC1CCN(CC(O)(Cn2cncn2)c2ccc(F)cc2F)CC1			MIC80		broth dilution	0.122 µM
COc1ccc(/C(CCn2ccnc2)=N\O)cc1			MIC80		agar diffusion	0.2549 µg/mL
OC(CCn1ccnc1)c1cccc(C(O)c2ccc(Cl)c(Cl)c2)c1		RTCC 1095	MIC		broth dilution	>64 µg/mL
CCN(CC)c1ccc(/C=N/NC(=O)c2ccc(CNc3nc4ccccc4[nH]3)cc2)cc1			MIC		broth dilution	50 µg/mL
CC1CC(=O)N(Cc2ccccc2)C1=O		CCC 131-2000	MIC		broth dilution / turbidity	125 µg/mL
O=C(CCn1ccnc1)c1cccc(C(O)c2ccc(Br)cc2)c1		RTCC 1065	MIC		broth dilution	>64 µg/mL
CC1CC(=O)N(CCCCc2ccccc2)C1=O		CCC 131-2000	MIC		broth dilution / turbidity	125 µg/mL
COc1ccc(/C=N\O)cc1			MIC100		broth dilution	1650 µM
CC(=O)OC1C(=O)N(c2ccccc2)C1c1ccc([N+](=O)[O-])cc1		CP/K92	MIC			18.4 µM
Clc1ccc(C(Cn2ccnc2)NC/C=C/c2ccccc2)cc1		CBS 94 CA 44 CA 14	EC50	VERO		50 µg/mL
Clc1ccc(C(Cn2ccnc2)OCc2csc3c(Cl)cccc23)c(Cl)c1	48 h	65 isolates	MIC50		visual reading	2 µg/mL
C(=C\c1ccccc1)/CNC(Cn1ccnc1)c1ccccc1		CBS 94 CA 44 CA 14	EC50	VERO		25 µg/mL
O=C1C(O)C2(c3ccccc3)SCCCN12		CP/K92	MIC			106 µM
O=C(CC1=Nc2ccccc2C1)OC1CCN(CC(O)(Cn2cncn2)c2ccc(F)cc2F)CC1			MIC80		broth dilution	0.126 µM
CCOc1ccc2nc3cc(N=C4NC(=O)/C(=C\C=C\c5ccc([N+](=O)[O-])o5)S4)ccc3c(N)c2c1		ATCC 8302	MIC		broth dilution	500 µg/mL
Clc1ccc(COC(Cn2ccnc2)c2ccc(Cl)cc2Cl)c(Cl)c1			MIC80		agar diffusion	0.0024 µg/mL
C[C@@H]1CC(=O)N(c2ccc(F)cc2F)C1=O		CCC 131-2000	MIC		broth dilution / turbidity	62.5 µg/mL
COc1cc(C(=O)O/N=C(\CCn2ccnc2)c2ccccc2)cc(OC)c1OC			MIC80		agar diffusion	0.3053 µg/mL
O/N=C/c1ccc(O)cc1			MIC			7290 µM
COc1ccc(N2C(=O)C(O)C2c2ccccc2)cc1		CP/K92	MIC			46.45 µM
N#Cc1ccc(/C=N/NC(=O)c2ccc(CNc3nc4ccccc4[nH]3)cc2)cc1			MIC		broth dilution	25 µg/mL
CC(C)C(=O)OC1CCN(CC(O)(Cn2cncn2)c2ccc(F)cc2F)CC1			MIC80		broth dilution	0.612 µM
C/C(=N/O)C(Cl)(Cl)Cl			MIC100			6450 µM
O=C(COc1cccc2ccccc12)OC1CCN(CC(O)(Cn2cncn2)c2ccc(F)cc2F)CC1			MIC80		broth dilution	0.479 µM
Fc1ccc(C(Cn2ccnc2)NC/C=C/c2ccccc2)cc1		CBS 94 CA 44 CA 14	EC50	VERO		25 µg/mL
C[C@@H]1C(=O)N(c2ccccc2)C(=O)[C@@H]1C		CCC 131-2000	MIC		broth dilution / turbidity	31.3 µg/mL
COC(=O)c1ccc(N2C(=O)C(OC(C)=O)C2c2ccc(F)cc2)cc1		CP/K92	MIC			8.4 µM
C=CCc1ccc(OC)c(OC)c1		2509	MIC90		turbidity	340 µg/mL
O=C(N/N=C/c1ccc(F)cc1)c1ccc(CNc2nc3ccccc3[nH]2)cc1			MIC		broth dilution	100 µg/mL
OC(CCn1ccnc1)c1cccc(C(O)c2ccc(Cl)cc2)c1		RTCC 1065	MIC		broth dilution	>64 µg/mL
CCC(C)n1ncn(-c2ccc(N3CCN(c4ccc(OC[C@H]5CO[C@](Cn6cncn6)(c6ccc(Cl)cc6Cl)O5)cc4)CC3)cc2)c1=O			MIC80		broth dilution	0.089 µM
Cc1ccc(/C(CCn2ccnc2)=N/OC(=O)c2ccc(Cl)cc2)cc1			MIC80		agar diffusion	0.3398 µg/mL
CC1CC(=O)N(c2ccc(Br)cc2)C1=O		CCC 131-2000	MIC		broth dilution / turbidity	250 µg/mL
CCC(C)CC(C)CCCCCCCCC(=O)N[C@H]1C[C@@H](O)[C@H](NCCN)NC(=O)[C@@H]2[C@@H](O)CCN2C(=O)[C@H]([C@H](O)CCN)NC(=O)[C@H]([C@H](O)[C@@H](O)c2ccc(O)cc2)NC(=O)[C@@H]2C[C@@H](O)CN2C(=O)[C@H]([C@@H](C)O)NC1=O		10 isolates	MIC90			0.4 µg/mL
O=C(O/N=C(\CCn1ccnc1)c1ccc(Cl)cc1)c1ccc(Cl)cc1			MIC80		agar diffusion	0.6439 µg/mL
O/N=C\c1ccc(F)cc1			MIC100			7200 µM
CC(C)(O)c1cn(-c2ccc(Cl)cc2)nn1		URM 1150	MIC		broth dilution	128 µg/mL

3 of the rows above, restated:

SMILES	conditions	strain or isolate	read-out	cell line	read by	result
Clc1ccc(C(Cn2ccnc2)OCc2csc3c(Cl)cccc23)c(Cl)c1	48 h	65 isolates	MIC50		visual reading	2 µg/mL
CC(C)(O)c1cn(-c2ccc(Cl)cc2)nn1		URM 1150	MIC		broth dilution	128 µg/mL
O=C(O/N=C(\CCn1ccnc1)c1ccc(Cl)cc1)c1ccc(Cl)cc1			MIC80		agar diffusion	0.6439 µg/mL